Pooled drug test results. Numbers come from NIAID ChemDB, via PubChem.

Shared fields: whole-cell or culture tests; agent: Mycobacterium tuberculosis

MIC bound comes from a single tested concentration. Conditions beyond the fields shown may differ between rows. Blank or dashed fields: not listed here. Inhibition is in % at the dose shown (toxicity tests: loss of growth or viability). ECn: concentration that inhibits the pathogen or its effect by n%. A number after MIC or MFC names an inhibition level or a share of isolates.

smiles,setting,tested at,method,strain,measure,value
CCCCCCCCCN1C(=O)c2cc(Cl)nnc2Oc2ccc(C)cc21,-,12.5 µg/mL,BACTEC,H37Rv,inhibition,34%
C[C@@H](NC(=O)OCc1ccccc1)c1cnc(-c2ccccc2)[nH]1,14 d,-,-,My 331/88,MIC,125 µM
CCCCCCCCN1C(=O)c2cc(Cl)nnc2Oc2ccc(Cl)cc21,-,12.5 µg/mL,BACTEC,H37Rv,inhibition,49%
CCCCCCCn1c2ccccc2c2cc(CO)c(C)cc21,-,-,-,H37Rv,MIC,>128 µM
CCCCCCN1C(=O)c2ccnnc2Oc2cc(C)ccc21,-,12.5 µg/mL,BACTEC,H37Rv,inhibition,21%
NNC(=O)c1ccncc1,-,-,-,188 strains,MIC50,0.06 µg/mL
O=C(OCc1ccccc1)N1CCC[C@H]1c1cnc(-c2ccccc2)[nH]1,14 d,-,-,My 331/88,MIC,62.5 µM
Oc1ccc2c(c1)[nH]c1ccccc12,-,-,-,H37Rv,MIC,>128 µM
CCC(C)N1CCN(c2cc(=O)c3nc4c(oc3c2)c2c(=O)c3c(O)c(C)c5c(c34)=C(O)[C@@](C)(O/C=C/[C@H](OC)[C@@H](C)[C@@H](OC(C)=O)[C@H](C)[C@H](O)[C@H](C)[C@@H](O)[C@@H](C)/C=C/C=C(/C)C(=O)N2)O5)CC1,-,-,-,16 strains (rifampicin-susceptible),MIC90,3.13 µg/mL
COc1cc(Cc2cnc(/N=C3\C(=O)N(CN4CCN(c5c(F)cc6c(=O)c(C(=O)O)cn(C7CC7)c6c5OC)CC4C)c4ccc(F)cc43)nc2N)cc(OC)c1OC,-,-,-,H37Rv,EC50,<6.25 µg/mL
CC1N=C(N)NC(c2ccccc2Cl)=C1C(=O)Nc1ccc(S(=O)(=O)c2ccc(NC(=O)C3=C(c4ccccc4Cl)NC(N)=NC3C)cc2)cc1,-,-,-,H37Rv,MIC,0.22 µM
COc1cc(Cc2cnc(/N=C3\C(=O)N(CN(C)C)c4ccc(F)cc43)nc2N)cc(OC)c1OC,-,6.25 µg/mL,-,H37Rv,inhibition,19%
CO[C@H]1/C=C/O[C@@]2(C)Oc3c(C)c(O)c4c(O)c(c5c(c4c3C2=O)NC2(CCN(C(C)C)CC2)N=5)=NC(=O)/C(C)=C\C=C\[C@H](C)[C@H](O)[C@@H](C)[C@@H](O)[C@@H](C)[C@H](OC(C)=O)[C@@H]1C,-,-,-,H37Rv,MIC,0.001 µg/mL
CC(C)N=c1cc2n(-c3ccc(Cl)cc3)c3ccccc3nc-2cc1Nc1ccc(Cl)cc1,-,12.5 µg/mL,BACTEC,H37Rv,inhibition,99%
CCCCCCCCCC#CCCC#CC(=O)O,-,-,-,H37Rv,MIC,>300 µM
C[C@H]1COC2(CCN(S(=O)(=O)c3cc(-[n+]4ccc(O)cc4)cc(C(F)(F)F)c3)CC2)O1,-,-,resazurin,H37Rv,MIC,>64 µM
CC(C)C[C@H](NC(=O)OCc1ccccc1)c1cnc(-c2ccccc2)[nH]1,14 d,-,-,My 331/88,MIC,125 µM
CC1N=C(N)NC(c2cccs2)=C1C(=O)Nc1ccc(S(=O)(=O)c2ccc(NC(=O)C3=C(c4cccs4)NC(N)=NC3C)cc2)cc1,-,-,-,H37Rv,MIC,0.68 µM
CO[C@H]1/C=C/O[C@@]2(C)Oc3c(C)c(O)c4c(c3C2=O)-c2nc(C3CCCCC3)[nH]c2C(=NC(=O)/C(C)=C\C=C\[C@H](C)[C@H](O)[C@@H](C)[C@@H](O)[C@@H](C)[C@H](OC(C)=O)[C@@H]1C)C4=O,-,-,-,H37Rv,MIC,0.001 µg/mL
N#Cc1cnn2ccn(C3OC(COC(=O)c4ccccc4)C(OC(=O)c4ccccc4)C3OC(=O)c3ccccc3)c12,-,-,BACTEC,H37Rv,MIC bound,>12.5 µg/mL
CN1CCN(CCOc2cc(Nc3cc(C4CC4)[nH]n3)nc(-c3ccccc3)n2)CC1,-,-,-,H37Rv,MIC99,10 µM
CC(C)[C@H](NC(=O)OCc1ccccc1)c1cnc(-c2ccc([N+](=O)[O-])cc2)[nH]1,21 d,-,-,My 331/88,MIC,16 µM
C=Cc1ccc2c(c1)[nH]c1ccccc12,-,-,-,H37Rv,MIC,>128 µM
COc1c(N2CCNC(C)C2)c(F)cc2c(=O)c(C(=O)O)cn(C3CC3)c12,-,-,-,11 strains,MIC90,0.25 µg/mL
COc1cc(C(=O)O)cc2c1[nH]c1ccccc12,-,-,-,H37Rv,MIC,>128 µM
Cc1cc(Br)cc(C)c1NC(=O)C(=O)Nn1c(=S)[nH]c2ccccc2c1=O,-,12.5 µg/mL,BACTEC,H37Rv,inhibition,-3%
CCn1cc(C(=O)O)c(=O)c2cnc(N3CCNCC3)nc21,-,-,-,H37Rv,MIC,128 µg/mL
S=C(S)NCC1CCC(CNC(=S)S)CC1,-,128 µg/mL,BACTEC,H37Rv,inhibition,99%
O=C1c2cc(Cl)nnc2Oc2ccc3ccccc3c2N1CCCC1CCCCC1,-,12.5 µg/mL,BACTEC,H37Rv,inhibition,11%
CC1N=C(N)NC(c2ccc(N(C)C)cc2)=C1C(=O)Nc1ccc(S(=O)(=O)c2ccc(NC(=O)C3=C(c4ccc(N(C)C)cc4)NC(N)=NC3C)cc2)cc1,-,-,-,H37Rv,MIC,0.94 µM
COc1cc(Cc2cnc(/N=C3\C(=O)N(CN4CCN(c5ccccc5)CC4)c4ccc(F)cc43)nc2N)cc(OC)c1OC,-,-,-,H37Rv,EC50,>6.25 µg/mL
CC(C)CCO[C@@H]1C=C[C@H](O)[C@@H](CO)O1,-,-,BACTEC / radiometric,H37Rv,MIC,>50 µg/mL
COc1cc(Cc2cnc(/N=C3\C(=O)N(CN4CCN(c5cc6c(cc5F)c(=O)c(C(=O)O)cn6C5CC5)CC4)c4ccc(F)cc43)nc2N)cc(OC)c1OC,-,6.25 µg/mL,-,H37Rv,inhibition,100%
S=C(SSC(=S)N1CCOCC1)N1CCOCC1,-,-,BACTEC,H37Rv,MIC bound,≤128 µg/mL
COc1cc(C2=C(C(=O)Nc3ccc(S(=O)(=O)c4ccc(NC(=O)C5=C(c6cc(OC)c(OC)c(OC)c6)NC(N)=NC5C)cc4)cc3)C(C)N=C(N)N2)cc(OC)c1OC,-,-,-,H37Rv,MIC,1.56 µM
COc1c(N2CCNC(C)C2)c(F)cc2c(=O)c(C(=O)O)cn(C3CC3)c12,-,-,-,H37Rv,MIC,0.12 µg/mL
O=c1c2ccccc2sc2cccc(NCCCN3CCN(CCCNc4cccc5sc6ccccc6c(=O)c45)CC3)c12,-,12.5 µg/mL,BACTEC,H37Rv,inhibition,2%
c1ccc(-c2nc(NCCc3cnc[nH]3)cc(Nc3cc(C4CC4)[nH]n3)n2)cc1,-,-,resazurin,H37Rv,MIC90,125 µM
COc1ccccc1N=Nc1c(S(=O)(=O)O)cc2cc(NC(=O)Nc3ccc4c(O)c(N=Nc5ccc(S(=O)(=O)O)cc5C)c(S(=O)(=O)O)cc4c3)ccc2c1O,-,12.5 µg/mL,BACTEC,H37Rv,inhibition,0%
COc1ccc(C2=C(C(=O)Nc3ccc(S(=O)(=O)c4ccc(NC(=O)C5=C(c6ccc(OC)c(OC)c6)NC(N)=NC5C)cc4)cc3)C(C)N=C(N)N2)cc1OC,-,-,-,H37Rv,MIC,1.48 µM
CC[C@@H](CO)NCCN[C@@H](CC)CO,-,-,agar,H37Rv,MIC,0.15 µM
O=c1n(C2CCCCC2)c(=C(Cl)Cl)c(=C(Cl)Cl)n1C1CCCCC1,-,12.5 µg/mL,BACTEC,H37Rv,inhibition,5%
CO[C@H]1/C=C/O[C@@]2(C)Oc3c(C)c(O)c4c(c3C2=O)-c2nc[nH]c2C(=NC(=O)/C(C)=C\C=C\[C@H](C)[C@H](O)[C@@H](C)[C@@H](O)[C@@H](C)[C@H](OC(C)=O)[C@@H]1C)C4=O,-,-,-,H37Rv,MIC,0.002 µg/mL
CN1C(=O)Cn2c(n[nH]c(=O)c2=O)-c2cc(Cl)ccc21,-,12.5 µg/mL,BACTEC,H37Rv,inhibition,-17%
O=C1c2cc(Cl)nnc2Oc2ccc(Cl)cc2N1CCCC1CCCCC1,-,12.5 µg/mL,BACTEC,H37Rv,inhibition,51%
CC1CCCCN1.CC1CCCCN1C(=S)S,-,-,-,PZA-R,MIC,1.6 µg/mL
O=C(O)CCNC(=S)NC1CCCCC1,-,-,-,H37Rv,MIC,2.5 µg/mL
COc1ccc(C2=C(C(=O)Nc3ccc(S(=O)(=O)c4ccc(NC(=O)C5=C(c6ccc(OC)c(O)c6)NC(N)=NC5C)cc4)cc3)C(C)N=C(N)N2)cc1O,-,-,-,INH resistant,MIC,7.74 µM
CCn1cc(C(=O)O)c(=O)c2ccc(C)nc21,-,-,-,H37Rv,MIC,128 µg/mL
CC(C)(C)OC(=O)NC1CCCC1C(O)(C1=CCCC1)C1=CCCC1,-,6.25 µg/mL,resazurin,H37Rv,inhibition,13%
CC(C)Oc1ccc(NC(=S)NCCC(=O)O)cc1,-,-,-,H37Rv,MIC,2.5 µg/mL
C[C@@H]1CN(c2c(F)c(N)c3c(=O)c(C(=O)O)cn(C4CC4)c3c2F)C[C@H](C)N1,-,-,-,H37Rv,MIC,0.25 µg/mL
NC(CC(=O)O)CC(=O)O,-,-,BACTEC,H37Rv,MIC,≥12.5 µg/mL
CCCC(C)Oc1ccc(N2C(=O)CCNC2=S)cc1,-,-,-,H37Rv,MIC,5 µg/mL
CN(C)[C@@H]1CCN(c2cc(Nc3cc(C(F)(F)F)c(Br)cn3)nc(-c3ccccc3)n2)C1,-,-,resazurin,H37Rv,MIC90,16 µM
CCn1cc(C(=O)O)c(=O)c2cc(F)c(N3CCN(CN4C(=O)/C(=N\c5ncc(Cc6cc(OC)c(OC)c(OC)c6)c(N)n5)c5cc(F)ccc54)CC3)cc21,-,6.25 µg/mL,-,H37Rv,inhibition,100%
CCOc1ccc(N2C(=O)CCNC2=S)cc1,-,-,-,H37Rv,MIC,5 µg/mL
O=Cc1cc2c(cc1O)[nH]c1cc(O)ccc12,-,-,-,H37Rv,MIC,69 µM
COc1ccc(C2=C(C(=O)Nc3ccc(S(=O)(=O)c4ccc(NC(=O)C5=C(c6ccc(OC)cc6)NC(N)=NC5C)cc4)cc3)C(C)N=C(N)N2)cc1,-,-,-,INH resistant,MIC,2.5 µM
COc1ccc(OC)c2c(NCCNCCO)cc(NCCNCCO)nc12.Cl.Cl.Cl,-,-,BACTEC,H37Rv,MIC bound,>12.5 µg/mL
CCN(CC)CCOc1cc(Nc2cc(C3CC3)[nH]n2)nc(-c2ccccc2)n1,-,-,resazurin,H37Rv,MIC90,16 µM
C/C1=C\C(C)C(O)C(O)C(=O)C2(C)CNC3=C(O2)C(=O)c2c(cc(C)c(O)c2C1=O)C3=O,-,-,BACTEC,H37Rv,MIC,≥12.5 µg/mL
CCCOc1ccc(NC(=S)NCCC(=O)O)cc1,-,-,-,H37Rv,MIC,1.3 µg/mL
CC[C@]12CCCN3CCc4c(n(c5ccccc45)C(=O)C1)[C@@H]32,-,-,BACTEC,H37Rv,MIC bound,>12.5 µg/mL
CN1CCN(c2ccc(Nc3ncc(Br)c(NCC(C)(C)CNC(=O)C4CCC4)n3)cn2)CC1,-,-,resazurin,H37Rv,MIC90,64 µM
O=CC(NC(=O)N(CCCl)N=O)C(O)C(O)C(O)CO,-,12.5 µg/mL,BACTEC,H37Rv,inhibition,15%
C[C@H]1COc2c(N3CCN(C)CC3)c(F)cc3c(=O)c(C(=O)O)cn1c23,-,-,-,H37Rv,MIC,0.5 µg/mL
O=C1CN(c2ccccc2)C(=O)CN1Nc1ccccc1,-,12.5 µg/mL,BACTEC,H37Rv,inhibition,0%
CO[C@H]1/C=C/O[C@@]2(C)Oc3c(C)c(O)c4c(=O)c(c5oc6cc(N7CCN(CC(C)C)CC7)cc(=O)c6nc5c4c3=C2O)NC(=O)/C(C)=C\C=C\[C@H](C)[C@H](O)[C@@H](C)[C@@H](O)[C@@H](C)[C@H](OC(C)=O)[C@@H]1C,-,-,-,16 strains (rifampicin-susceptible),MIC50,≤0.0125 µg/mL
Cc1cc(OCCCCCCC[N+](C)(C)Cc2ccc([N+](=O)[O-])o2)c(C(C)C)cc1Cl,-,12.5 µg/mL,BACTEC,H37Rv,inhibition,100%
COc1cc(Cc2cnc(/N=C3\C(=O)N(CN4CCN(c5ccc(Cl)cc5)CC4)c4ccc(F)cc43)nc2N)cc(OC)c1OC,-,6.25 µg/mL,-,H37Rv,inhibition,45%
[Na+].[O-]N=Nc1nc(-c2cccnc2)nc2ccccc12,-,-,BACTEC,H37Rv,MIC bound,>12.5 µg/mL
CCCC(C)Oc1ccc(NC(=S)NCCC(=O)O)cc1,-,-,-,H37Rv,MIC,2.5 µg/mL
CC(C)(C)OC(=O)N1N=NC2C3CC(=O)C(O3)C21,-,12.5 µg/mL,BACTEC,H37Rv,inhibition,5%
CCCCCCCCCN1C(=O)c2cc(Cl)nnc2Oc2cc(C)ccc21,-,-,BACTEC,H37Rv,EC50,>12.5 µg/mL

Repeating the first 4 entries:

smiles,setting,tested at,method,strain,measure,value
CCCCCCCCCN1C(=O)c2cc(Cl)nnc2Oc2ccc(C)cc21,-,12.5 µg/mL,BACTEC,H37Rv,inhibition,34%
C[C@@H](NC(=O)OCc1ccccc1)c1cnc(-c2ccccc2)[nH]1,14 d,-,-,My 331/88,MIC,125 µM
CCCCCCCCN1C(=O)c2cc(Cl)nnc2Oc2ccc(Cl)cc21,-,12.5 µg/mL,BACTEC,H37Rv,inhibition,49%
CCCCCCCn1c2ccccc2c2cc(CO)c(C)cc21,-,-,-,H37Rv,MIC,>128 µM